{"source": "patent US20200010516A1", "about": "(NATIONAL CHENG KUNG UNIVERSITY, published 2020)"}
{"target": "integrin αIIbβ3 on platelets of healthy donors (platelet-rich plasma) (UniProt P08514 32-1039; P05106 27-788)", "test": "cell-based or functional assay", "units": {"Platelet Aggregation, IC50": "nM"}}
{"binder": "Disintegrin variant SEQ ID NO: 128 (Table 8 no. 2) (ligand) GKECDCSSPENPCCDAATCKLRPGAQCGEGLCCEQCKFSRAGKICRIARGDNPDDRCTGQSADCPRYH", "Platelet Aggregation, IC50": 125}
{"binder": "Disintegrin variant SEQ ID NO: 129 (Table 8 no. 3) (ligand) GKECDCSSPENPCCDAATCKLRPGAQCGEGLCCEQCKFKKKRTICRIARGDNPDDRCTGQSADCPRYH", "Platelet Aggregation, IC50": 88.2}
{"binder": "Disintegrin variant SEQ ID NO: 347 (Table 8 no. 4) (ligand) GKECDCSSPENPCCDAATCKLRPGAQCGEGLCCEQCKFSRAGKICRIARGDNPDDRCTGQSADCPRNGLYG", "Platelet Aggregation, IC50": 195}
{"binder": "Disintegrin variant SEQ ID NO: 131 (Table 8 no. 5 and no. 21) (ligand) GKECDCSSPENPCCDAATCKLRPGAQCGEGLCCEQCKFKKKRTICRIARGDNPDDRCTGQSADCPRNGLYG", "Platelet Aggregation, IC50": 160}
{"binder": "Disintegrin variant SEQ ID NO: 130 (Table 8 no. 6) (ligand) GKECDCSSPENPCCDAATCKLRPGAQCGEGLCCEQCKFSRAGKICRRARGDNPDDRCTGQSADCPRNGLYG", "Platelet Aggregation, IC50": 234}
{"binder": "Disintegrin variant SEQ ID NO: 132 (Table 8 no. 7) (ligand) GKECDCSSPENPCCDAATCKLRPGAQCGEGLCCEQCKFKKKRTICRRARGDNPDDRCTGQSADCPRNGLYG", "Platelet Aggregation, IC50": 154}
{"binder": "Disintegrin variant SEQ ID NO: 138 (Table 8 no. 8) (ligand) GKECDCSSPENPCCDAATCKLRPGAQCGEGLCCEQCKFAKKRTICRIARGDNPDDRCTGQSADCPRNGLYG", "Platelet Aggregation, IC50": 132}
{"binder": "Disintegrin variant SEQ ID NO: 139 (Table 8 no. 9) (ligand) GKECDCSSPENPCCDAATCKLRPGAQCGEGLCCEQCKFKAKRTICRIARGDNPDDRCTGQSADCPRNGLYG", "Platelet Aggregation, IC50": 190}
{"binder": "Disintegrin variant SEQ ID NO: 140 (Table 8 no. 10) (ligand) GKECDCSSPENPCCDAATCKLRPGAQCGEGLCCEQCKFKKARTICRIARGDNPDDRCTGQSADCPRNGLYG", "Platelet Aggregation, IC50": 158}
{"binder": "Disintegrin variant SEQ ID NO: 141 (Table 8 no. 11) (ligand) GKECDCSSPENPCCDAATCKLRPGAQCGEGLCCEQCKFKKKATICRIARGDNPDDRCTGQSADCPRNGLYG", "Platelet Aggregation, IC50": 141}
{"binder": "Disintegrin variant SEQ ID NO: 142 (Table 8 no. 12) (ligand) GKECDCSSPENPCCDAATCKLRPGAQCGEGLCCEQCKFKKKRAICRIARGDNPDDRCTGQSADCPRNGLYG", "Platelet Aggregation, IC50": 192}
{"binder": "Disintegrin variant SEQ ID NO: 143 (Table 8 no. 13) (ligand) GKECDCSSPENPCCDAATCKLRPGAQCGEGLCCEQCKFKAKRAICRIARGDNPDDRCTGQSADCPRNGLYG", "Platelet Aggregation, IC50": 157}
{"binder": "Disintegrin variant SEQ ID NO: 144 (Table 8 no. 14) (ligand) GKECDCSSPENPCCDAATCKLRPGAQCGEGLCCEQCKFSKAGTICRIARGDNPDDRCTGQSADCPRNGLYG", "Platelet Aggregation, IC50": 175}
{"binder": "Disintegrin variant SEQ ID NO: 135 (Table 8 no. 15) (ligand) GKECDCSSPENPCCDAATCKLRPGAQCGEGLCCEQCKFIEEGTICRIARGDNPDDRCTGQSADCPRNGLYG", "Platelet Aggregation, IC50": 206}
{"binder": "Disintegrin variant SEQ ID NO: 136 (Table 8 no. 16) (ligand) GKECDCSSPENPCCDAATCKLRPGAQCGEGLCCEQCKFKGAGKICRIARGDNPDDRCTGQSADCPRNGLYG", "Platelet Aggregation, IC50": 176}
{"binder": "Disintegrin variant SEQ ID NO: 137 (Table 8 no. 17) (ligand) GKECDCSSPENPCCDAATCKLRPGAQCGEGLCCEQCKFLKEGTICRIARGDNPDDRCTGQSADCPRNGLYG", "Platelet Aggregation, IC50": 188}
{"binder": "Disintegrin variant SEQ ID NO: 134 (Table 8 no. 18) (ligand) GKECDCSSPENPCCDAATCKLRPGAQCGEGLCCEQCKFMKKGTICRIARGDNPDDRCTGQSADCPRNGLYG", "Platelet Aggregation, IC50": 178}
{"binder": "Disintegrin variant Table 8 no. 19 (printed SEQ ID NO: 130; linker SRAGK) (ligand) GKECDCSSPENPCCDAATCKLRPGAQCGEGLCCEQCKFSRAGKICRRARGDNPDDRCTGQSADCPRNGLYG", "Platelet Aggregation, IC50": 200}
{"binder": "Disintegrin variant Table 8 no. 20 (printed SEQ ID NO: 132) (ligand) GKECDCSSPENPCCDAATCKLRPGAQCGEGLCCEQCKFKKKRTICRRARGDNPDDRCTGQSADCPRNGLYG", "Platelet Aggregation, IC50": 148}
{"target": "integrin αvβ3 (on CHO-αvβ3 cells) (UniProt P06756 31-1048; P05106 27-788)", "test": "cell-based or functional assay", "units": {"IC50, adhesion of CHO-αvβ3 cells to fibrinogen": "nM"}}
{"binder": "Disintegrin variant SEQ ID NO: 134 (Table 8 no. 18) (ligand) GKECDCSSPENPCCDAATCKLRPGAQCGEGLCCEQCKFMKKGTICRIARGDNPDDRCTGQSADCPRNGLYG", "IC50, adhesion of CHO-αvβ3 cells to fibrinogen": 4}
{"target": "integrin α5β1 (on K562 cells) (human, UniProt P08648 42-1049; P05556 21-798)", "test": "cell-based or functional assay", "units": {"IC50, adhesion of K562 cells to fibronectin": "nM"}}
{"binder": "Disintegrin variant SEQ ID NO: 128 (Table 8 no. 2) (ligand) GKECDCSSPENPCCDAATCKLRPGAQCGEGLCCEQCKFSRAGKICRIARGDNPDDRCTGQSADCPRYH", "IC50, adhesion of K562 cells to fibronectin": 40}
{"binder": "Disintegrin variant SEQ ID NO: 129 (Table 8 no. 3) (ligand) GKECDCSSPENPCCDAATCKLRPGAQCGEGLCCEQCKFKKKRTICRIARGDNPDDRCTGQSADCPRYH", "IC50, adhesion of K562 cells to fibronectin": 10}
{"target": "T1, integrin αIIbβ3 on platelets of healthy donors (UniProt P08514 32-1039; P05106 27-788)", "test": "cell-based or functional assay", "units": {"IC50, Platelet Aggregation": "nM"}}
{"binder": "39KKKRT-^48ARGDN^53P-^67NGLY^71G (ligand) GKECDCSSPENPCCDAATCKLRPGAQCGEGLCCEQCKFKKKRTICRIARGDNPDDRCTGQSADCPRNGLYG", "IC50, Platelet Aggregation": 160}
{"binder": "39IEEGT-^48ARGDN^53P-^67NGLY^71G (ligand) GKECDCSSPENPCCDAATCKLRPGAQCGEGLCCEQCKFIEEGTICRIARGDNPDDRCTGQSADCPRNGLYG", "IC50, Platelet Aggregation": 206}
{"binder": "39SRAGK-^48ARGDN^53P-^67NGLY^71G (ligand) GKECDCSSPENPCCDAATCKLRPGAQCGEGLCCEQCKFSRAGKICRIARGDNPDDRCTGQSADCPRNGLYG", "IC50, Platelet Aggregation": 195}
{"binder": "39LKEGT-^48ARGDN^53P-^67NGLY^71G (ligand) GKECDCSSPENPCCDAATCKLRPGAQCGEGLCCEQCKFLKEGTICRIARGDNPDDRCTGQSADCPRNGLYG", "IC50, Platelet Aggregation": 188}
{"binder": "^39AKKR^34T-^48ARGDN^53P-^67NGLY^71G (ligand) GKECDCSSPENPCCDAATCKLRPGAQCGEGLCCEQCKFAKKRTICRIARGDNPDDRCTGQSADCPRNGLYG", "IC50, Platelet Aggregation": 132}
{"binder": "K^40AKR^43T-^48ARGDN^53P-^67NGLY^71G (ligand) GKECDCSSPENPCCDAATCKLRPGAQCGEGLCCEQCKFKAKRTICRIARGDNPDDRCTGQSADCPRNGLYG", "IC50, Platelet Aggregation": 190}
{"binder": "KKK^42A^43T-^48ARGDN^53P-^67NGLY^71G (ligand) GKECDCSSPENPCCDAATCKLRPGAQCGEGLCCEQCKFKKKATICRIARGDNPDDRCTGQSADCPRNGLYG", "IC50, Platelet Aggregation": 141}
{"binder": "KKKR^43A-^48ARGDN^53P-^67NGLY^71G (ligand) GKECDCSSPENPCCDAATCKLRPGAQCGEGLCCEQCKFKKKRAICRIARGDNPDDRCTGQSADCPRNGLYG", "IC50, Platelet Aggregation": 192}
{"binder": "^39KAKRA^43-^48ARGDN^53P-^67NGLY^71G (ligand) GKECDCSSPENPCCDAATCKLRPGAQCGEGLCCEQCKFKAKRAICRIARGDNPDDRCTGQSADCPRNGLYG", "IC50, Platelet Aggregation": 157}
{"binder": "^39SKAGT^43-^48ARGDN^53P-^67NGLY^71G (ligand) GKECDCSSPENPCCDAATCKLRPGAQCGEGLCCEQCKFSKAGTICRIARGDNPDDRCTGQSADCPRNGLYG", "IC50, Platelet Aggregation": 175}
{"binder": "^39SRAGKICR-^47RARGDN^53P-^67NGLY^71G (ligand) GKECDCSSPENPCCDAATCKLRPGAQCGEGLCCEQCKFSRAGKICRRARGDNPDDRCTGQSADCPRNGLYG", "IC50, Platelet Aggregation": 234}
{"binder": "^39KKKRTICR-^47RARGDN^53P-^67NGLY^71G (ligand) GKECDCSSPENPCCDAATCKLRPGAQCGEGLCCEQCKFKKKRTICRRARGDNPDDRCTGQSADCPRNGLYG", "IC50, Platelet Aggregation": 154}
{"binder": "^9KKKRT-^46ARARGDN^53P-^67NGLY^71G (ligand) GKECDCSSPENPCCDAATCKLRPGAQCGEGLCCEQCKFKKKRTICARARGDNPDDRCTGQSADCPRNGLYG", "IC50, Platelet Aggregation": 148}
{"target": "T1, integrin αIIbβ3 on platelets of healthy …", "test": "cell-based or functional assay", "remark": "another data set of the same source", "units": {"IC50, Platelet Aggregation": "nM"}}
{"binder": "^39KKART-^46 ARGRGDNP-^66YLYG (ligand) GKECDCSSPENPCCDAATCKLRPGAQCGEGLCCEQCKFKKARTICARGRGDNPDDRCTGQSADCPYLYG", "IC50, Platelet Aggregation": 30300}
{"binder": "^39KKART-^46 ARGRGDNP-^66ELYG (ligand) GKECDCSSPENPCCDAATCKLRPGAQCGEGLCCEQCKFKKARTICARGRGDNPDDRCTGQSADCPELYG", "IC50, Platelet Aggregation": 46100}
{"target": "T1, integrin αIIbβ3 on platelets of healthy …", "test": "cell-based or functional assay", "remark": "another data set of the same source", "units": {"IC50, Platelet Aggregation": "nM"}}
{"binder": "^39SRAGK-^46RIARGDDL-^66RYH (ligand) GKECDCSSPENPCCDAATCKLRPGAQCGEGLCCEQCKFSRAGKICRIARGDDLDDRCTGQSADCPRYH", "IC50, Platelet Aggregation": 455}
{"binder": "^39KKART-^46ARGRGDDL-^66GLYG (ligand) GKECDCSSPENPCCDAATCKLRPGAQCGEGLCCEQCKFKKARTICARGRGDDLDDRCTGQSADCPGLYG", "IC50, Platelet Aggregation": 47300}
{"target": "integrin αvβ5 on HT-29 cells (human, UniProt P06756 31-1048; P18084 24-799)", "test": "cell-based or functional assay", "units": {"IC50, adhesion of HT-29 cells to vitronectin": "nM"}}
{"binder": "^39KKART-^46ARGRGDNP-^66RWNDL (KG-WN) (ligand) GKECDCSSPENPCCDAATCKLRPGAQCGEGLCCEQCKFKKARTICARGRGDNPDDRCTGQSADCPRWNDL", "IC50, adhesion of HT-29 cells to vitronectin": 43.7}
{"target": "integrin αIIbβ3 on CHO-αIIbβ3 cells (UniProt P08514 32-1039; P05106 27-788)", "test": "cell-based or functional assay", "units": {"IC50, adhesion of CHO-αIIbβ3 cells to fibrinogen": "nM"}}
{"binder": "^39KKART-^46ARGRGDNP-^66RWNDL (KG-WN) (ligand) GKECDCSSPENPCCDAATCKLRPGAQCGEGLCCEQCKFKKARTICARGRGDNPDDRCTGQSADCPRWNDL", "IC50, adhesion of CHO-αIIbβ3 cells to fibrinogen": 28000}
{"target": "integrin αvβ6 on HT-29 cells (human, UniProt P06756 31-1048; P18564 22-788)", "test": "cell-based or functional assay", "units": {"IC50, adhesion of HT-29 cells to fibronectin": "nM"}}
{"binder": "^39KKART-^46ARGRGDNP-^66RWNDL (KG-WN) (ligand) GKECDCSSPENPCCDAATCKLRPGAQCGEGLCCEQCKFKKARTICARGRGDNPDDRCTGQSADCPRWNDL", "IC50, adhesion of HT-29 cells to fibronectin": 108}
{"target": "T1, integrin αIIbβ3 on platelets of healthy …", "test": "cell-based or functional assay", "remark": "another data set of the same source", "units": {"IC50, Platelet Aggregation": "nM"}}
{"binder": "^39KKART-^46ARGRGDNP-^66RWNDL (KG-WN) (ligand) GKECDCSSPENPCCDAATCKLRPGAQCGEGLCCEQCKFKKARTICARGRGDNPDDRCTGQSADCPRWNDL", "IC50, Platelet Aggregation": 4530}
